Sequences and labels used below:
B1: BD55-6520 (protein)
chain 1: QIILTESGPTLVKPTQTLTLTCTFSGFSLTTTEVGVGWIRQPPGKPLEWLALIYWDDAKRYSPSLKNRLTITKDTSKNQVVLTMTNMDPVDTGTYYCAHWYYDISTGELFYMDVWGKGTTVTVSS
chain 2: DIVLTQTPLSSSVTLGQPASISCRSSQSLAHSDGNTYLSWLQQKPGQPPRLLIYEISNRFSGVPDRFSGSGSGTDFTLKISRVEIEDVGVYYCMQTTQFPQEMYTFGQGTKLEIK
B2: BD55-6518 (protein)
chain 1: QVQLVESGGGVVQPGRSLRLSCAASGFIFSNYGMHWVRQAPGKGLEWVALIWFDGTNQYFGDSVKGRFTISRDNSKNTLYLQMNSLRTEDTAVYYCARDSQCRGGNCYFDYNWFDAWGQGTLVTVSS
chain 2: VLTQSPATLSLSPGERATLSCRASQSISFHLAWYQQKPGQAPRLLIYDATKRATDIPARFSGSGSGTDFSLTISSLEPEDFAVYYCQQRYTWPPAYTFGQGTKLEIK
B3: BD55-6492 (protein)
chain 1: QVQLVQSGADVKKPGASVRVSCKASGYTFIDYYIHWVRQAPGEGLEWIGWINPISGGTNFAQKFQGRVTMTRDTSTSTAYMDLTRLRSDDTAVYYCARGWDTRSTFYEHWFDPWGQGTLVTVSS
chain 2: DIVMTQSPASLAVSLGERATINCKSSQSVLYSSTNKNYLAWYQQKPGQPPKLLIYWASTRESGVPDRFSGSGSGTDFTLTISRLQAEDVAIYYCQQYYSSPLTFGGGTNVEIK
B4: BD55-6523 (protein)
chain 1: QVQLVQSGAEVKKPGASVKVSCKASGHTFSNYDINWVRQATGQGPEWMGWMNPKSGDTGYAHKFQGRVSMTRNTSISTAYMELSSLRSEDTAVYYCACGVETASLYYYYYAMDVWGQGTTVTVSS
chain 2: IQMTQSPSFLSASVGDRVTITCRAGQNINTNLNWYQQKPGKAPNLLIYEASSLHSGVPSRFSGSGSGTDFSLTINSLQPEDFATYFCQQSYSTPSTFGQGTKLEIK
B5: BD55-6507 (protein)
chain 1: QVQLVQSGAEVKKPGASVKVSCKAFGYTFNSNYIYWVRQAPGQGLEWMGVIDPSAGATSYAQKFQGRVTMTRDTSTNTVYMELSSLRSEDTAVYYCARDLGDDVSRGYSGYDFLDLYAMDVWGQGTTVTVS
chain 2: DIVMTQSPDSLAVSLGERATINCKSSQSILYTSNNKNYLAWYQQKPGQPPKLLIYWASTRESGVPDRFSGSGSGTDFTLTISSLQAEDVAVFYCQQHYSPPPTFGQGTRLEIK
B6: BD55-1257 (protein)
chain 1: EVQLVESGGGLVQPGGSLRLSCSASGFIFSTYAMQWVRQAPGKGLEYVSGISSDGGITDYGDSVKDRFTISRDNSKNRVYLQMTSLRGEDTAVYYCVKDLGDITTVTTFDYWGQGTLVTVSS
chain 2: DIQMTQSPSSLSTSVGDRVTITCRASQSISKYLNWYQQKPGKAPKLLIYSASTLHSGVPSRFSGSGSGTDFTLTITGLQPEDFATYYCQQSYTAPLTFGGGTKVELK

Human monoclonal antibodies against the spike receptor-binding domain (heavy:light variable regions). IC50 against pseudoviruses bearing the spike of naturally observed variants; lower = stronger; >10 µg/ml means not reached at the top dose. No active / inactive call. The stated detection limit is 0.0005 µg/ml; values near or below 0.001 µg/ml lie at the floor of the assay.

The target in the first assay is SARS-CoV-2 Omicron BA.1 spike pseudovirus. As to the kind of experiment: pseudovirus neutralization IC50; higher = weaker neutralization. The method, then:
(§1)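 Single-round VSV luciferase pseudovirus mixed with antibody dilutions for 1 h and put on Huh-7 cells for about a day; IC50 from the dose curve.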
As to B1, the “pseudovirus neutralization IC50” value is over 10 µg/mL.
Regarding B2, the “pseudovirus neutralization IC50” value was over 10 µg/mL.
Take B3: the “pseudovirus neutralization IC50” value is over 10 µg/mL.
With B4, the “pseudovirus neutralization IC50” value is over 10 µg/mL.
Turning to B5, the “pseudovirus neutralization IC50” value came to 0.0545 µg/mL.
As for B6, the “pseudovirus neutralization IC50” value is over 10 µg/mL.

A further assay concerns the target SARS-CoV-2 Omicron BA.2 spike pseudovirus. Described as above. The method, then:
as §1
With B1, the “pseudovirus neutralization IC50” value was over 10 µg/mL.
On to B2, for which the “pseudovirus neutralization IC50” value is over 10 µg/mL.
On the same count and under the same terms, in the case of B3 it was over 10 µg/mL.
The same measure, in the same setting: in the case of B4 it was over 10 µg/mL; in that of B5, over 10 µg/mL.
In the case of B6, the “pseudovirus neutralization IC50” value is over 10 µg/mL.

The next assay has as its target SARS-CoV-2 Omicron BA.2.75 spike pseudovirus. The description is as above. The method, then: as §1
B1: the “pseudovirus neutralization IC50” value is over 10 µg/mL.
For the molecule B2, the “pseudovirus neutralization IC50” value was over 10 µg/mL.
On to B3, for which the “pseudovirus neutralization IC50” value was over 10 µg/mL.
For B4, the “pseudovirus neutralization IC50” value is over 10 µg/mL.
As for B5, the “pseudovirus neutralization IC50” value is over 10 µg/mL.
Take B6: the “pseudovirus neutralization IC50” value is over 10 µg/mL.

A further assay has as its target SARS-CoV-2 Omicron BA.5 spike pseudovirus. The description is as above. The method, then:
as §1
On to B1, for which the “pseudovirus neutralization IC50” value is over 10 µg/mL.
As for B2, the “pseudovirus neutralization IC50” value was over 10 µg/mL.
On the same count and under the same terms, with B3 the figure was over 10 µg/mL; with B4, over 10 µg/mL.
Consider B5, for which the “pseudovirus neutralization IC50” value was over 10 µg/mL.
With B6, the “pseudovirus neutralization IC50” value is over 10 µg/mL.

For a further assay, the target named is SARS-CoV-2 Omicron BQ.1.1 spike pseudovirus. The assay is described as above. On the procedure: as §1
Regarding B1, the “pseudovirus neutralization IC50” value was over 10 µg/mL.
Same read-out and setting: in the case of B2 it was over 10 µg/mL; in that of B3, over 10 µg/mL; in that of B4, over 10 µg/mL.
For B5, the “pseudovirus neutralization IC50” value is over 10 µg/mL.
As for B6, the “pseudovirus neutralization IC50” value was over 10 µg/mL.

The target in the next assay is SARS-CoV-2 Omicron XBB spike pseudovirus. The assay is described as above. On the procedure:
as §1
On to B1, for which the “pseudovirus neutralization IC50” value is over 10 µg/mL.
In the case of B2, the “pseudovirus neutralization IC50” value is over 10 µg/mL.
In the case of B3, the “pseudovirus neutralization IC50” value is over 10 µg/mL.
The same measure, in the same setting: with B4 the figure was over 10 µg/mL; with B5, over 10 µg/mL.
The same measure, in the same setting: in the case of B6 it was over 10 µg/mL.

Another assay concerns the target SARS-CoV-2 early D614G spike pseudovirus. Described as above. The method, then:
as §1
Regarding B1, the “pseudovirus neutralization IC50” value was 0.0278 µg/mL.
B2: the “pseudovirus neutralization IC50” value was determined as 4.36 µg/mL.
The same measure, in the same setting: with B3 the figure was 4.23 µg/mL; with B4, over 10 µg/mL; with B5, 0.0338 µg/mL.
B6: the “pseudovirus neutralization IC50” value is over 10 µg/mL.

For the origin of these results see the supplement of paper PMC9931576.
